Experimental findings from publication PMC9114799, “In vitro Evaluation of Isoniazid Derivatives as Potential Agents Against Drug-Resistant Tuberculosis” (Frontiers in Pharmacology, 2022) are described below.

This series relates to M. tuberculosis H37Rv ATCC27294 (wt). The series is classed as cell-based. The note with it: SI = IC50 (HepG2)/MIC (wt).

Turning to `COC(=O)c1ccc(/C=N/NC(=O)c2ccncc2)cc1` [Compound N33, methyl (E)-4-((2-isonicotinoylhydrazineylidene)methyl)benzoate], the “SI (wt)” value was above 24.

On to `O=C(N/N=C/c1ccc(Oc2ccccc2)cc1)c1ccncc1` [Compound N34, (E)-N'-(4-phenoxybenzylidene)isonicotinohydrazide], for which the “SI (wt)” value was above 210. Under `CCCCCCCCCC(=O)NNC(=O)c1ccncc1` [INH-C10, N′-decanoylisonicotinoylhydrazide] stands above 66; under `NNC(=O)c1ccncc1` [INH, isonicotinoylhydrazide, reference compound], above 690. As to `O=C(NNCc1ccc(Oc2ccccc2)cc1)c1ccncc1` [Compound N34red, N'-(4-phenoxybenzyl)isonicotinohydrazide], the “SI (wt)” value is given as 48.5. Under `COC(=O)c1ccc(CNNC(=O)c2ccncc2)cc1` [Compound N33red, methyl 4-((2-isonicotinoylhydrazinyl)methyl)benzoate] stands above 100.
